Laboratory results published in patent US20060166867A1, “Novel conjugates of polysaccharides and uses thereof” (priority 2003, published 2006).

System: MT2 cells
Assay type: cell-based
Protocol: Cytotoxicity of the various pAACs was determined using the trypan blue exclusion assay. In brief, a sample of the cell suspension was diluted 1:1 (v/v) with 0.4% trypan blue and the cells were counted using a hemocytometer. Results are expressed as the percentage of dead cells.
HIV-1 isolates were propagated by subculture in MT2 cells (Litovchick et al. (2001) supra). Aliquots of cell-free culture supernatants were used as viral inoculum. PAACs were dissolved in the RPMI 1640 medium. Cytotoxicity determinations were carried out in MT2 cells by trypan blue exclusion assay. Viral inhibition was determined by incubating MT2 or cMAGI HIV-1 reporter cells with 0.2-0.5 multiplicity of infection of HIV-1 wild type or resistant virus for 4 days at 37° C. in the presence or absence of various concentrations of pAACs. HIV-1 infection of cMAGI cells was determined by counting the number of HIV-1-infected cells (stained blue). The cytopathic effects of the viral infection of MT2 cells were also analyzed by microscopic assessment of syncytium formation.

[1] = Table 4, tryphan blue exclusion assay for MT2 cells

Substance	Cytotoxicity [1] [µM]	Cytotoxicity (Table 3, trypan blue exclusion) [µM]	toxicity (at concentrations as high as 200 μM)
D-Arg-6-mer-neomycin [Compound 11]	155		
D-Arg-9-mer-neomycin [Compound 14]	120		
L-Arg-6-mer-neomycin [Compound 4]		200	non-toxic
L-Arg-9-mer-neomycin [Compound 8]		150	

Like-named read-outs stand apart in the source and are kept apart here.
